Compound potency records, mixed from different reports. Data source: NIAID ChemDB in PubChem.

All rows: tests on isolated targets; organism: HIV-1; protein: Reverse transcriptase; read-out: IC50

a–b is a range or a potency band. ICn: concentration for n% inhibition. Neighbouring rows are from separate reports. Blank or dashed fields: not listed here.

CC(C)(C)c1ccc(-n2nnnc2SCC(=O)Nc2ccc(NC(=O)CC3CCCC3)cc2Cl)c(Cl)c1 ; changes: RT-K103 Y181C ; method: PicoGreen / fluorescence ; value: <1 µM
CCN1c2ncc(CCOc3ccc(C(C)CC(=O)O)c4ccccc34)cc2C(=O)N(C)c2cccnc21 ; strain or isolate: WT ; method: nucleotide incorporation / radiometric ; value: <0.1 µM
CCN1c2ncc(CCOc3ccc(-c4ccc[n+]([O-])c4)cc3C)cc2C(=O)Nc2c(C)ccnc21 ; strain or isolate: IIIB ; changes: RT-K103N Y181C ; method: nucleotide incorporation / radiometric ; value: <0.05 µM
CCN1c2ncc(CCOc3ccc(CC(=O)O)c4ccccc34)cc2C(=O)Nc2c(C)cc(F)nc21 ; changes: RT-V106A ; method: nucleotide incorporation / radiometric ; value: 0.1–1 µM
CCc1cc(CCc2nc3ccccc3o2)c(=O)[nH]c1C ; changes: RT-Y181F ; method: nucleotide incorporation ; value: 0.0234 µM
CC[C@H](C)[C@H](NC(=O)c1ccc(NC(=O)CSc2nnc(Br)n2-c2ccc(C3CC3)c3ccccc23)c(Cl)c1)C(=O)O ; method: nucleotide incorporation / radiometric ; value: <0.05 µM
Cc1cc(-n2nnnc2SCC(=O)Nc2ccc(C#CC(C)(C)O)cc2Cl)c(Cl)c(C(F)(F)F)c1 ; changes: RT-K103 Y181C ; method: PicoGreen / fluorescence ; value: <1 µM
O=C(CSc1nnc(Br)n1-c1ccc(C2CC2)cc1Cl)Nc1ccc(S(=O)(=O)O)cc1Cl ; method: nucleotide incorporation / radiometric ; value: <0.05 µM
COc1cc2c(cc1[N+](=O)[O-])CN(c1nn3c(C4CC4)nnc3c3ccccc13)CC2 ; strain or isolate: KER2008 ; method: RT activity / fluorescence ; value: 26.9 µM
CC(C)(C)c1ccc(-n2nnnc2SCC(=O)Nc2ccc(-c3ccc(OCC(=O)O)c(F)c3)cc2Cl)c(Cl)c1 ; strain or isolate: WT ; method: PicoGreen / fluorescence ; value: <1 µM
CCOC(=O)[C@H](Cc1ccc(O)cc1)NC(=O)c1ccc(NC(=O)CSc2nnc(Br)n2-c2ccc(C3CC3)c3ccccc23)c(Cl)c1 ; method: nucleotide incorporation / radiometric ; value: 0.05–0.1 µM
Nc1cc2c(cc1F)CN(c1nn3c(C4CC4)nnc3c3ccccc13)CC2 ; strain or isolate: KER2008 ; method: RT activity / fluorescence ; value: 0.46 µM
CCc1ccc(-n2c(SCC(=O)Nc3ccc(C(=O)O)cc3Cl)nnc2C(F)(F)F)c2ccccc12 ; method: nucleotide incorporation / radiometric ; value: <0.05 µM
CC(C)(C)c1ccc(-n2nnnc2SCC(=O)Nc2ccc(OCC(=O)Nc3ccc(O)cc3)cc2Cl)c(Cl)c1 ; changes: RT-K103 Y181C ; method: PicoGreen / fluorescence ; value: <1 µM
CCN1c2ncc(CCOc3ccc(-c4ncccn4)cc3)cc2C(=O)N(C)c2cccnc21 ; strain or isolate: IIIB ; method: nucleotide incorporation / radiometric ; value: <0.05 µM
CCCCCCNC(=O)c1ccc(NC(=O)CSc2nnc(Br)n2-c2ccc(CC)c3ccccc23)c(Cl)c1 ; method: nucleotide incorporation / radiometric ; value: <0.05 µM
CC(C)(C)c1ccc(-n2nnnc2SCC(=O)Nc2ccc(NC(=O)Cc3ccc4ccoc4c3)cc2Cl)c(Cl)c1 ; changes: RT-K103 Y181C ; method: PicoGreen / fluorescence ; value: <1 µM
COc1ccc2c(C3CC3)ccc(-n3c(Br)nnc3SCC(=O)Nc3ccc(S(N)(=O)=O)cc3Cl)c2c1 ; method: nucleotide incorporation / radiometric ; value: <0.05 µM
O=C(CSc1nnnn1-c1ccc(C2CC2)cc1Cl)Nc1ccc(C#CCCN2CCNCC2)cc1Cl ; strain or isolate: WT ; method: PicoGreen / fluorescence ; value: <1 µM
O=C(CSc1nnc(Br)n1-c1ccc(C2CC2)c2ccccc12)Nc1ccc(C(=O)N[C@@H](Cc2ccc(O)cc2)C(=O)O)cc1Cl ; changes: RT-Y188L ; method: nucleotide incorporation / radiometric ; value: 0.05–0.1 µM
O=C(O)Cc1ccc(-c2ccc(NC(=O)CSc3nnnn3-c3cc4ccccc4cc3Cl)c(Cl)c2)cc1 ; strain or isolate: WT ; method: PicoGreen / fluorescence ; value: <1 µM
O=C(CSc1nnc(Br)n1-c1c(Cl)cc(C2CCC2)c2ccccc12)Nc1ccc(C(=O)O)cc1Cl ; method: nucleotide incorporation / radiometric ; value: <0.05 µM
CCS(=O)(=O)NC(=O)C(C)(C)C#Cc1ccc(NC(=O)CSc2nnnn2-c2ccc(C3CC3)cc2Cl)c(Cl)c1 ; strain or isolate: WT ; method: PicoGreen / fluorescence ; value: <1 µM
CCN1c2ncc(CCOc3ccc(C(=O)O)c4c3CCN(C(=O)OC(C)(C)C)C4)cc2C(=O)N(C)c2cccnc21 ; changes: RT-K103N Y181C ; method: nucleotide incorporation / radiometric ; value: 0.1–1 µM
CCN1c2ncc(CCOc3ccc(N(Cc4ccc(C(=O)O)cc4)C(C)=O)cc3C)cc2C(=O)N(C)c2cccnc21 ; strain or isolate: IIIB ; method: nucleotide incorporation / radiometric ; value: 0.05–0.1 µM
COc1cc2c(cc1OC)CN(c1nn3c(C(F)F)nnc3c3ccccc13)CC2 ; strain or isolate: IIIB ; method: RT activity / fluorescence ; value: 2.49 µM
CC(C)(C)c1cc(Cl)c(-n2nnnc2SCC(=O)Nc2ccc(-c3ccc(CC(=O)O)cc3)cc2Cl)c(Cl)c1 ; changes: RT-K103 Y181C ; method: PicoGreen / fluorescence ; value: <1 µM
CCc1ccc(-n2c(SCC(=O)Nc3ccc(C(=O)O)cc3Cl)nnc2C(F)F)c2ccccc12 ; changes: RT-Y188L ; method: nucleotide incorporation / radiometric ; value: >0.1 µM
CCN1c2ncc(CCOc3ccc(-c4ccnc(C)c4)cc3C)cc2C(=O)N(C)c2cccnc21 ; strain or isolate: IIIB ; method: nucleotide incorporation / radiometric ; value: <0.05 µM
Cc1ccc(-n2nccc2OCC(=O)Nc2ccc(-c3ccc(CC(=O)O)cc3)cc2Cl)c(Cl)c1 ; changes: RT-K103 Y181C ; method: PicoGreen / fluorescence ; value: <1 µM
CCc1ccc(-n2c(Br)nnc2SCC(=O)Nc2ccc(C(=O)N3CCC(CN)CC3)cc2Cl)c2ccccc12 ; method: nucleotide incorporation / radiometric ; value: <0.05 µM
Cc1nnc2c3ccccc3c(N3CCc4ncccc4C3)nn12 ; strain or isolate: 98US_MSC5016 ; method: RT activity / fluorescence ; value: 2.01 µM
CCN1c2ncc(CCOc3ccc4cc(CC(=O)NN)ccc4c3)cc2C(=O)N(C)c2cccnc21 ; strain or isolate: WT ; method: nucleotide incorporation / radiometric ; value: <0.1 µM
CC(C)(C#Cc1ccc(NC(=O)CSc2nnnn2-c2ccc(C3CC3)cc2Cl)c(Cl)c1)NC(=O)c1csnn1 ; changes: RT-K103 Y181C ; method: PicoGreen / fluorescence ; value: <1 µM
COC(=O)c1ccc2c(c1)CN(c1nn3c(C)nnc3c3ccccc13)CC2 ; strain or isolate: 98US_MSC5016 ; method: RT activity / fluorescence ; value: 0.62 µM
NS(=O)(=O)c1ccc(NC(=O)CSc2nnc(Br)n2-c2ccc(C3CC3)c3c2CCCC3)c(Cl)c1 ; changes: RT-Y188L ; method: nucleotide incorporation / radiometric ; value: >0.1 µM
CC(C)(C#Cc1ccc(NC(=O)CSc2nnnn2-c2cc(C(F)(F)F)ccc2Cl)c(Cl)c1)OCCOc1ccncc1 ; strain or isolate: WT ; method: PicoGreen / fluorescence ; value: <1 µM
Cc1cc(S(N)(=O)=O)ccc1NC(=O)CSc1nnc(Br)n1-c1ccc2c3c(cccc13)CC2 ; changes: RT-Y181C ; method: nucleotide incorporation / radiometric ; value: <0.05 µM
CC(C)(C#Cc1ccc(NC(=O)CSc2nnnn2-c2cc(Cl)ccc2Cl)c(Cl)c1)C(=O)O ; changes: RT-K103 Y181C ; method: PicoGreen / fluorescence ; value: <1 µM
CC(C)c1ccc(-n2c(SCC(=O)Nc3ccc(S(N)(=O)=O)cc3Cl)nnc2C(F)F)c2ccccc12 ; changes: RT-Y181C ; method: nucleotide incorporation / radiometric ; value: <0.05 µM
Cc1nnc2c3ccccc3c(N3CCc4ccccc4C3)nn12 ; strain or isolate: KER2008 ; method: RT activity / fluorescence ; value: 0.49 µM
CC(C)(C#Cc1ccc(NC(=O)CSc2nnnn2-c2ccc(C3CC3)cc2Cl)c(Cl)c1)NC(=O)CN1CCNCC1 ; changes: RT-K103 Y181C ; method: PicoGreen / fluorescence ; value: <1 µM
CCc1ccc(-n2c(Br)nnc2SCC(=O)Nc2ccc(C(=O)NCC(=O)O)cc2Cl)c2ccccc12 ; method: nucleotide incorporation / radiometric ; value: <0.05 µM
CC(C)(C#Cc1ccc(NC(=O)CSc2nnnn2-c2ccc(C3CC3)cc2Cl)c(Cl)c1)C(=O)NCC1CCCO1 ; strain or isolate: WT ; method: PicoGreen / fluorescence ; value: <1 µM
O=C(CSc1nnc(Br)n1-c1ccc(C2CC2)c2ccccc12)Nc1ccc(C(=O)O)cc1Cl ; changes: RT-Y181C ; method: nucleotide incorporation / radiometric ; value: <0.05 µM

Again, the opening 3 rows:

compound,strain or isolate,changes,method,value
CC(C)(C)c1ccc(-n2nnnc2SCC(=O)Nc2ccc(NC(=O)CC3CCCC3)cc2Cl)c(Cl)c1,,RT-K103 Y181C,PicoGreen / fluorescence,<1 µM
CCN1c2ncc(CCOc3ccc(C(C)CC(=O)O)c4ccccc34)cc2C(=O)N(C)c2cccnc21,WT,,nucleotide incorporation / radiometric,<0.1 µM
CCN1c2ncc(CCOc3ccc(-c4ccc[n+]([O-])c4)cc3C)cc2C(=O)Nc2c(C)ccnc21,IIIB,RT-K103N Y181C,nucleotide incorporation / radiometric,<0.05 µM